{"source": "PubChem BioAssay AID624099, ICCB-Longwood | 2012", "aim": "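Host factors E2 relies on to silence an HPV18 LCR reporter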 (primary screen)", "cells": "human C33A cervical carcinoma cells (HPV-negative) stably expressing BPV1 E2 and an HPV18 LCR luciferase reporter", "reagent": "siRNA pool against human genes, 40 nM", "timing": "72 h", "measurement": "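HPV18 LCR reporter light per well, converted to plate-wise z-scores that exclude control wells, and averaged over triplicate plates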", "scale": "mean z-score and z-score: higher = stronger reporter signal, weaker E2 silencing", "rule for the call": "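Hit if mean z-score reaches 2 and two or more of three replicate z-scores also reach 2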", "note": "Shown is one part, drawn at random, of about 21,000 reagents tested. 497 of all reagents (2.4%) count as active. 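Higher z means weaker E2 silencing; only reporter increases were scored, and knock-downs that hurt cell survival may mask genuine repressor factors.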 Unmarked entries are inactive."}
{"gene symbol": "TMEM60", "mean z-score": -0.58, "z-score, replicate A": -0.65, "z-score, replicate B": -0.5, "z-score, replicate C": -0.59}
{"gene symbol": "INTS6L", "mean z-score": -1.94, "z-score, replicate A": -2.07, "z-score, replicate B": -1.87, "z-score, replicate C": -1.89}
{"gene symbol": "PTGDR2", "mean z-score": 1.44, "z-score, replicate A": 1.61, "z-score, replicate B": 1.24, "z-score, replicate C": 1.46}
{"gene symbol": "FLRT2", "mean z-score": -0.01, "z-score, replicate A": -0.07, "z-score, replicate B": -0.05, "z-score, replicate C": 0.09}

Continued (2 carried over from the part before).
{"gene symbol": "PTGDR2", "mean z-score": 1.44, "z-score, replicate A": 1.61, "z-score, replicate B": 1.24, "z-score, replicate C": 1.46}
{"gene symbol": "FLRT2", "mean z-score": -0.01, "z-score, replicate A": -0.07, "z-score, replicate B": -0.05, "z-score, replicate C": 0.09}
{"gene symbol": "TTC29", "mean z-score": 0.29, "z-score, replicate A": 0.5, "z-score, replicate B": -0.01, "z-score, replicate C": 0.38}
{"gene symbol": "ABCC2", "mean z-score": 1.31, "z-score, replicate A": 1.24, "z-score, replicate B": 1.24, "z-score, replicate C": 1.44}
{"gene symbol": "IGSF9", "mean z-score": 1.17, "z-score, replicate A": 1.9, "z-score, replicate B": 0.84, "z-score, replicate C": 0.78}
{"gene symbol": "SIRPB1", "mean z-score": -0.18, "z-score, replicate A": -0.48, "z-score, replicate B": 0.07, "z-score, replicate C": -0.11}
{"gene symbol": "EPB42", "mean z-score": 0.38, "z-score, replicate A": 0.32, "z-score, replicate B": 0.27, "z-score, replicate C": 0.55}
{"gene symbol": "BRAF", "mean z-score": -0.78, "z-score, replicate A": -0.72, "z-score, replicate B": -0.53, "z-score, replicate C": -1.08}
{"gene symbol": "RFPL2", "mean z-score": -0.33, "z-score, replicate A": -0.25, "z-score, replicate B": -0.4, "z-score, replicate C": -0.34}
{"gene symbol": "RPLP1", "mean z-score": -1.86, "z-score, replicate A": -2.18, "z-score, replicate B": -1.52, "z-score, replicate C": -1.89}
{"gene symbol": "DIS3", "mean z-score": -0.42, "z-score, replicate A": -0.39, "z-score, replicate B": -0.52, "z-score, replicate C": -0.36}
{"gene symbol": "NUTM2B", "mean z-score": -0.37, "z-score, replicate A": -0.3, "z-score, replicate B": -0.63, "z-score, replicate C": -0.19}
